Measured values published in patent publication US20100016367A1, “BIS-PYRINIDIUM COMPOUNDS” (priority 2006, published 2010).

Tests used:
C. albicans ATCC 10231 = assay: Antifungal susceptibility assay, MIC; assay type: cell-based, Candida albicans
C. neoformans ATCC 90112 = assay: Antifungal susceptibility assay, MIC; assay type: cell-based, Cryptococcus neoformans
C. krusei ATCC 6258 = assay: Antifungal MIC, broad spectrum; assay type: cell-based, Candida krusei; conditions: Table 1b
C. krusei 04-202328 = assay: Antifungal MIC, broad spectrum; assay type: cell-based, Candida krusei; conditions: Table 1b
C. albicans ATCC 90028 = assay: Antifungal MIC, broad spectrum; assay type: cell-based, Candida albicans; conditions: Table 1b
S. prolificans 05-203060 = assay: Antifungal MIC, broad spectrum; assay type: cell-based, Scedosporium prolificans; conditions: Table 1b
C. glabrata 04-202345 = assay: Antifungal MIC, broad spectrum; assay type: cell-based, Candida glabrata; conditions: Table 1b
C. neoformans 05-202523 = assay: Antifungal MIC, broad spectrum; assay type: cell-based, Cryptococcus neoformans; conditions: Table 1b
[1] = test system: Absidia corymbifera 04-200170; assay: Antifungal MIC, broad spectrum; assay type: cell-based; conditions: Table 1b
[2] = test system: Paecilomyces lilacinus 05-200601; assay: Antifungal MIC, broad spectrum; assay type: cell-based; conditions: Table 1b
[3] = test system: Rhizopus oryzae 05-203111; assay: Antifungal MIC, broad spectrum; assay type: cell-based; conditions: Table 1b
[4] = test system: Exophiala spinifera 03-200803; assay: Antifungal MIC, broad spectrum; assay type: cell-based; conditions: Table 1b
[5] = test system: Fusarium solani 04-203102; assay: Antifungal MIC, broad spectrum; assay type: cell-based; conditions: Table 1b
[6] = test system: Exophiala jeanselmei 03-200268; assay: Antifungal MIC, broad spectrum; assay type: cell-based; conditions: Table 1b
C. tropicalis 04-202361 = assay: Antifungal MIC, broad spectrum; assay type: cell-based, Candida tropicalis; conditions: Table 1b
A. fumigatus 05-203114 = assay: Antifungal MIC, broad spectrum; assay type: cell-based, Aspergillus fumigatus; conditions: Table 1b
A. fumigatus ATCC 204305 = assay: Antifungal MIC, broad spectrum; assay type: cell-based, Aspergillus fumigatus; conditions: Table 1b
A. flavus ATCC 204304 = assay: Antifungal MIC, broad spectrum; assay type: cell-based, Aspergillus flavus; conditions: Table 1b
A. flavus 05-203758 = assay: Antifungal MIC, broad spectrum; assay type: cell-based, Aspergillus flavus; conditions: Table 1b
[7] = test system: C. parapsilosis ATCC 22019; assay: Antifungal MIC, broad spectrum; assay type: cell-based, Candida parapsilosis; conditions: Table 1b
[8] = test system: C. parapsilosis 04-202398; assay: Antifungal MIC, broad spectrum; assay type: cell-based, Candida parapsilosis; conditions: Table 1b
C. gattii 05-200122 = assay: Antifungal MIC, broad spectrum; assay type: cell-based, Cryptococcus gattii; conditions: Table 1b
[9] = test system: Cunninghamella berth 99-12187; assay: Antifungal MIC, broad spectrum; assay type: cell-based, Cunninghamella bertholletiae; conditions: Table 1b
S. apiospermum 05-203100 = assay: Antifungal MIC, broad spectrum; assay type: cell-based, Scedosporium apiospermum; conditions: Table 1b
A. terreus 05-202844 = assay: Antifungal MIC, broad spectrum; assay type: cell-based, Aspergillus terreus; conditions: Table 1b

Molecule | MIC C. albicans ATCC 10231 (C. albicans ATCC 10231; Table 1c) [µM] | MIC C. neoformans ATCC 90112 (C. neoformans ATCC 90112; Table 1c) [µM] | MIC C. albicans ATCC 10231 (C. albicans ATCC 10231; Table 1) [µM] | MIC C. neoformans ATCC 90112 (C. neoformans ATCC 90112; Table 1) [µM] | MIC C. krusei ATCC 6258 (C. krusei ATCC 6258) [µM] | MIC C. krusei 04-202328 (C. krusei 04-202328) [µM] | MIC C. albicans ATCC 90028 (C. albicans ATCC 90028) [µM] | MIC S. prolificans 05-203060 (S. prolificans 05-203060) [µM] | MIC C. albicans ATCC 10231 (C. albicans ATCC 10231; Table 1b) [µM] | MIC C. glabrata 04-202345 (C. glabrata 04-202345) [µM] | MIC C. neoformans 05-202523 (C. neoformans 05-202523) [µM] | MIC Absidia corymbifera 04-200170 [1] [µM] | MIC Paecilomyces lilacinus 05-200601 [2] [µM] | MIC Rhizopus oryzae 05-203111 [3] [µM] | MIC Exophiala spinifera 03-200803 [4] [µM] | MIC Fusarium solani 04-203102 [5] [µM] | MIC Exophiala jeanselmei 03-200268 [6] [µM] | MIC C. tropicalis 04-202361 (C. tropicalis 04-202361) [µM] | MIC A. fumigatus 05-203114 (A. fumigatus 05-203114) [µM] | MIC A. fumigatus ATCC 204305 (A. fumigatus ATCC 204305) [µM] | also measured
1,12-bis[3-Methyl,4-pentyl(2-butyl)pyridinium]dodecane | 2.75 | 2.75 |  |  |  |  |  |  |  |  |  |  |  |  |  |  |  |  |  |  | 
1,12-bis(3,4-Dipentylpyridinium)dodecane | 2.75 | 2.75 |  |  |  |  |  |  |  |  |  |  |  |  |  |  |  |  |  |  | 
CCCCCc1cc[n+](CCCCCCCCCC[n+]2ccc(CCCCC)cc2)cc1 |  |  | 2.7 | 11 |  |  |  |  |  |  |  |  |  |  |  |  |  |  |  |  | 
CCCCCc1cc[n+](CCCCCCCC[n+]2ccc(CCCCC)cc2)cc1 |  |  | 2.7 | 44 |  |  |  |  |  |  |  |  |  |  |  |  |  |  |  |  | 
CCCCC(CCCC)c1cc[n+](CCCCCCCCCCCC[n+]2ccc(C(CCCC)CCCC)c(C)c2)cc1C |  |  |  |  | 5.5 | 5.5 | 2.75 | 5.5 | 2.75 | 2.75 | 5.5 | 44 | 87.5 | 5.5 | 2.75 | 44 | 5.5 | 2.75 | 22 | 22 | MIC A. flavus ATCC 204304 (A. flavus ATCC 204304): 22 µM; MIC A. flavus 05-203758 (A. flavus 05-203758): 87.5 µM; MIC C. parapsilosis ATCC 22019 [7]: 2.75 µM; MIC C. parapsilosis 04-202398 [8]: 22 µM; MIC C. gattii 05-200122 (C. gattii 05-200122): 2.75 µM; MIC Cunninghamella berth 99-12187 [9]: 22 µM; MIC S. apiospermum 05-203100 (S. apiospermum 05-203100): 2.75 µM; MIC C. neoformans ATCC 90112 (C. neoformans ATCC 90112; Table 1b): 2.75 µM; MIC A. terreus 05-202844 (A. terreus 05-202844): 5.5 µM
CCCCCCc1cc[n+](CCCCCCCCCCCC[n+]2ccc(CCCCCC)cc2)cc1 |  |  |  |  | 5.5 | 5.5 | 1.4 | 44 | 1.4 | 1.4 | 11 | 87.5 | 87.5 | 1.4 | 2.75 | 22 | 1.4 | 1.4 | 22 | 22 | MIC A. flavus ATCC 204304 (A. flavus ATCC 204304): 22 µM; MIC A. flavus 05-203758 (A. flavus 05-203758): 44 µM; MIC C. parapsilosis ATCC 22019 [7]: 1.4 µM; MIC C. parapsilosis 04-202398 [8]: 44 µM; MIC C. gattii 05-200122 (C. gattii 05-200122): 1.4 µM; MIC Cunninghamella berth 99-12187 [9]: 22 µM; MIC S. apiospermum 05-203100 (S. apiospermum 05-203100): 87.5 µM; MIC C. neoformans ATCC 90112 (C. neoformans ATCC 90112; Table 1b): 1.4 µM; MIC A. terreus 05-202844 (A. terreus 05-202844): 1.4 µM
